Reference: the supplement of paper PMC3578754
Fold change is the IC50 on the isolate divided by the IC50 on a reference virus; 1 = unchanged, higher = more resistant. Changes are given against the subtype B consensus. No active / inactive call. The values were gathered from many studies (numbered anew) with different assays, which the source does not name. Most viruses are clinical isolates; some are laboratory strains or clones with known resistance changes. Isolates with mixed residues are left out; stretches that were not sequenced show no change. Round top values that many isolates share are read here as limits; other very high values and 0.1 may be limits too. For some assays here: The protease changes I3V and N37S, insertions and deletions cannot be read from the source.

How the values were obtained:
[1] = compound: Cc1ccnc2c1NC(=O)c1cccnc1N2C1CC1 [nevirapine]; test: fold change of IC50 against reference virus; higher = more resistant
Procedure: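 Cell-culture drug susceptibility tests of virus bearing the reverse transcriptase of each isolate, gathered from many studies.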

[2] = compound: CC(C)(C)NC(=O)[C@@H]1CN(Cc2cccnc2)CCN1C[C@@H](O)C[C@@H](Cc1ccccc1)C(=O)N[C@H]1c2ccccc2C[C@H]1O [indinavir]; test: fold change of IC50 against reference virus; higher = more resistant; Cell-culture drug susceptibility tests of virus bearing the protease of each isolate, gathered from many studies.
[3] = compound: CC(C)(C)NC(=O)[C@@H]1C[C@@H]2CCCC[C@@H]2CN1C[C@@H](O)[C@H](Cc1ccccc1)NC(=O)[C@H](CC(N)=O)NC(=O)c1ccc2ccccc2n1 [saquinavir]; test: as above
[4] = compound: CC(C)c1nc(CN(C)C(=O)N[C@H](C(=O)N[C@@H](Cc2ccccc2)C[C@H](O)[C@H](Cc2ccccc2)NC(=O)OCc2cncs2)C(C)C)cs1 [ritonavir]; test: as above
[5] = compound: Cc1c(O)cccc1C(=O)N[C@@H](CSc1ccccc1)[C@H](O)CN1C[C@H]2CCCC[C@H]2C[C@H]1C(=O)NC(C)(C)C [nelfinavir]; test: as above
[6] = compound: Cc1cccc(C)c1OCC(=O)N[C@@H](Cc1ccccc1)[C@@H](O)C[C@H](Cc1ccccc1)NC(=O)[C@H](C(C)C)N1CCCNC1=O [lopinavir]; test: as above

Row | Test System | fold change of IC50 against reference virus [1] | fold change of IC50 against reference virus [2] | fold change of IC50 against reference virus [3] | fold change of IC50 against reference virus [4] | fold change of IC50 against reference virus [5] | fold change of IC50 against reference virus [6]
1 | HIV-1 isolate 1121 (reverse transcriptase changes: K102Q K103N S162C K277R, study 16) | 8 |  |  |  |  | 
2 | HIV-1 isolate 390 (reverse transcriptase changes: A98G K102Q S162C K277R, study 16) | 2 |  |  |  |  | 
3 | HIV-1 isolate 6 (reverse transcriptase changes: K102Q S162C Y181C K277R, study 16) | 8 |  |  |  |  | 
4 | HIV-1 isolate 599 (reverse transcriptase changes: M41L K102Q S162C T215Y K277R I293V R358K V435I S468P K550G, study 16) | 1 |  |  |  |  | 
5 | HIV-1 isolate 1482 (reverse transcriptase changes: K102Q V108I S162C K277R, study 16) | 1 |  |  |  |  | 
6 | HIV-1 isolate 782 (reverse transcriptase changes: K122E F214L A272P K277R M357T A376T A400T N447S D460N S468T S519N, study 96) | 1 |  |  |  |  | 
7 | HIV-1 isolate 1069 (reverse transcriptase changes: L100I K102Q S162C K277R, study 16) | 1 |  |  |  |  | 
8 | HIV-1 isolate 1551 (reverse transcriptase changes: K101E K102Q S162C K277R, study 16) | 8 |  |  |  |  | 
9 | HIV-1 isolate 363 (protease changes: L10I T12P K14R G16E K20T M36I P39S I54V I62V L63T G68D A71V V82A I93L, study 109) |  | 2.1 | 0.6 | 11 | 3.4 | 6.5
10 | HIV-1 isolate 821 (reverse transcriptase changes: K102Q S162C Y188C K277R, study 16) | 8 |  |  |  |  | 
11 | HIV-1 isolate 209 (protease changes: T12S K14R I15V L19I M36V R41K L63P H69K K70R L89M I93L, study 114) |  | 1.4 | 1 | 1.4 | 1.5 | 0.9
12 | HIV-1 isolate 1276 (protease changes: T12S K43R M46I L63P V82F, study 7) |  | 2.3 | 0.2 | 14.8 | 7.4 | 4.5
13 | HIV-1 isolate 734 (reverse transcriptase changes: K102Q S162C Y181C K277R I293V R358K V435I S468P K550G, study 128) | 200 |  |  |  |  | 
14 | HIV-1 isolate 1067 (reverse transcriptase changes: K102Q S162C V179D K277R, study 16) | 1 |  |  |  |  | 
15 | HIV-1 isolate 1148 (protease changes: L10I K20I N37D R57K D60E L63P A71I G73S V77I L90M I93L, study 116) |  | 11 | 10 | 5.4 | 45 | 1.9
16 | HIV-1 isolate 1194 (protease changes: E35D N37D L63S V82I, study 109) |  | 0.3 | 0.6 | 0.6 | 0.4 | 0.3
17 | HIV-1 isolate 1586 (protease changes: T12S L63P H69Q, study 109) |  | 0.8 | 0.6 | 1 | 1.3 | 1
18 | HIV-1 isolate 513 (reverse transcriptase changes: K102Q S162C V179E K277R, study 16) | 1 |  |  |  |  | 
19 | HIV-1 isolate 389 (protease changes: K20R L23I N37T L63P T74S V77I V82I I93L, study 145) |  | 0.9 | 1.3 | 1.7 | 6.7 | 0.8
20 | HIV-1 isolate 1096 (protease changes: L24I N37E M46I I54V D60E L63P I64V V82A, study 7) |  | 6.9 | 1.3 | 33.9 | 6.7 | 13.6
21 | HIV-1 isolate 1334 (protease changes: T12S I15V L19I M36I R41K H69K L89M I93L, study 114) |  | 0.9 | 0.7 | 0.7 | 0.7 | 0.7
22 | HIV-1 isolate 156 (protease changes: L10F M46I I47V I50V, study 30) |  | 2.4 | 2 | 6.5 | 4.1 | 31
23 | HIV-1 isolate 671 (protease changes: L63Q, study 15) |  | 0.6 | 0.6 | 0.6 | 0.8 | 0.5

Row | Test System | fold change of IC50 against reference virus [1] | fold change of IC50 against reference virus [2] | fold change of IC50 against reference virus [3] | fold change of IC50 against reference virus [4] | fold change of IC50 against reference virus [5] | fold change of IC50 against reference virus [6]
24 | HIV-1 isolate 9 (protease changes: I13A K14R K20I M36I R41K L63P H69K L89M, study 114) |  | 0.5 | 0.6 | 0.5 | 0.6 | 0.6
25 | HIV-1 isolate 798 (reverse transcriptase changes: K102Q S162C K277R, study 16) | 1 |  |  |  |  | 
26 | HIV-1 isolate 1050 (protease changes: T12S I15V L19I M36V R41K L63P H69K L89M I93L, study 114) |  | 0.4 | 0.6 | 0.3 | 0.4 | 0.3
27 | HIV-1 isolate 93 (protease changes: L10I I13V K20R L33F E35D M36I N37D M46L I54V I62V L63P G68E A71T I72V V82A L90M I93L, study 15) |  | 11 | 10 | ≥ 800 | 29 | 48
28 | HIV-1 isolate 1503 (protease changes: L10I K20R L24I L33I E35D M36I N37D R41K M46L G48S F53L I54V K55R R57K L63P I64V V82A, study 109) |  | 18 | 153 | 214 | 78 | 108
29 | HIV-1 isolate 604 (protease changes: I13V K14R K20I M36I R41K L63S H69K P79S T80P L89M, study 114) |  | 0.4 | 0.6 | 0.3 | 0.5 | 0.4
30 | HIV-1 isolate 1424 (protease changes: L10V I15V M36I M46L I54V I62V L63P A71V V82A I84V L90M I93L, study 145) |  | 11 | 25 | 63 | 20 | 35
31 | HIV-1 isolate 1596 (protease changes: I15V L63P V82L L90M, study 15) |  | 1.4 | 1.2 | 9 | 2.6 | 1.2
32 | HIV-1 isolate 43 (protease changes: I13V I15V K20I M36I R41K R57K C67S H69K V82I L89M, study 114) |  | 0.4 | 0.8 | 1.1 | 0.7 | 0.6
33 | HIV-1 isolate 227 (protease changes: L10F M46I I54V L63P H69K A71V V82A L90M I93L, study 109) |  | 9 | 2.7 | 22 | 18 | 22
34 | HIV-1 isolate 849 (protease changes: I13V K14R K20I E35D M36I R41K K43R I64M H69K L89M, study 114) |  | 0.8 | 1 | 1.4 | 1.2 | 1
35 | HIV-1 isolate 886 (protease changes: L10V L23I F53L I54V R57K L63P A71V V82A L90M, study 145) |  | 6.3 | 20 | 65 | 15 | 26
36 | HIV-1 isolate 993 (protease changes: L10F I84V, study 30) |  | 2.1 | 2.7 | 3.6 | 2.6 | 6.2
37 | HIV-1 isolate 634 (protease changes: M46L I54V I62V I64V V82A, study 109) |  | 2.7 | 0.5 | 12 | 4.1 | 6.3
38 | HIV-1 isolate 778 (protease changes: L10F I84V, study 30) |  | 3.2 | 3.7 | 4 | 3.4 | 7.7
39 | HIV-1 isolate 1267 (protease changes: I13V I15V K20I M36I R41K L63S H69K L89M, study 114) |  | 1 | 1 | 1.5 | 1.2 | 1.1
40 | HIV-1 isolate 257 (protease changes: L19I M36I R41K R57K L63S, study 114) |  | 0.8 | 0.6 | 1.2 | 1 | 0.7
41 | HIV-1 isolate 1396 (protease changes: I13V K14R I15V K20I E35Q M36I R41K R57K I64M C67E H69K V82I I85M L89M, study 114) |  | 0.8 | 1.7 | 1.6 | 1.9 | 1.1
42 | HIV-1 isolate 812 (protease changes: L10F I15V K20V L23I E35D M36I N37D M46I I50V L63P A71V V82T I85V L89V L90M, study 15) |  | 18 | 18 | 140 | 19 | 100
43 | HIV-1 isolate 242 (protease changes: R41K, study 109) |  | 0.6 | 0.7 | 0.6 | 0.5 | 0.6
44 | HIV-1 isolate 1454 (protease changes: L10I V32I L33M E34Q N37H F53L I54V Q61E L63E I64V E65D A71V V82S L90M, study 65) |  | 25.2 | 33.2 | 190 | 53.2 | 25.2
45 | HIV-1 isolate 800 (protease changes: L10I E35D P39Q Q61E L63P A71T I93L, study 15) |  | 0.9 | 0.7 | 0.8 | 1.4 | 0.6
